Measured values as given in the supplement of paper PMC9931576.
Human monoclonal antibodies against the spike receptor-binding domain (heavy:light variable regions). IC50 against pseudoviruses bearing the spike of naturally observed variants; lower = stronger; >10 µg/ml means not reached at the top dose. No active / inactive call. The stated detection limit is 0.0005 µg/ml; values near or below 0.001 µg/ml lie at the floor of the assay.

B1: BD56-1471 (protein)
chain 1: QVQLVQSGAEVKKPGAPVKVSCKASGYTFTSNYMHWVRQAPGQGLEWMGIINPSDGSTRYAQNFQGRVTMTRDTSTSTVYMELSSLRSEDTAVYYCARSMYSTSSEDYYYYYYMDVWGKGTTVTVSS
chain 2: QSALTQPASVSGSPGQSITISCTGTSSDIGVYNYVSWYQQHPGKAPKLIIYDVTKRPSGVSNRFSGSRSGNTASLTISGLQTEDEVDYFCSSYSSITTHVVFGGGTKLTVL
B2: BD56-1476 (protein)
chain 1: EVQLVESGGGLIQPGGSLRLSCVASGFIVSSNYMSWVRQAPGKGLEWVSLIYSGGSTFYADSVKGRFSISRDNSKNTLYLEMNSLRGEDTAVYYCARLLPMAGTLDFWGQGTLVTVSS
chain 2: DIQMTQSPSSLSASVGDRVTITCQASQDINKYLNWYQQKPGKAPKLLIYDASNLETGVPSRFSGSGSGTHFTFTISSLQPEDIATYYCQQYDSLLAVTFGGGTKVAIK
B3: BD56-1479 (protein)
chain 1: QVHLQESGPGLVRPSETLSLTCSVSGGSLSHYYWSWIRQPPGKGLEWIGYMFYSGGTNYNPSLRSRVTISVDTSNNQFSLKVRSVTAADTAIYFCARDRGDSSGWPDALSVWGQGTVVTVSS
chain 2: DIQMTQSPSSLSASVGDRVTITCQASQDIRNYLNWYQQKPGKAPKLLIYDASNLETGVPSRFSGSGSGTDFTFTISSLQPEDIATYYCQQYDNIPWTFGQGSKVESK
B4: BD56-1480 (protein)
chain 1: EVQLVESGGGLVQPGGSLRLSCVVSGFTVSSNYMSWVRQAPGKGLEWISVIYSGGSTFYADSVKGRFTISRHNSKNTLYLQMNSLRVEDTAVYYCARDPYGRPLTWGQGTLVTVSS
chain 2: DIQMTQSPSSLSASAGDRVTITCRASQDIVKFLNWYQQKPGKAPKVLIYDASNLETGVPSRFSGSGSGTDFSLTISSLQPEDVATYYCQQYDNLPITFGQGTRLEIK
B5: BD56-1485 (protein)
chain 1: QVQLVQSGAEVKKPGSSVKVSCKASGGTFSRYAINWVRQAPGQGLEWMGGIIPLFGTAHYAQNFQGRLTITADKYTSTSYMELSSLRSDDTAVYYCARGNTVQPSDYYYYGMDVWGQGTTVTVSS
chain 2: DIQMTQSPSSLSASVGDRVTITCQASQDISNSLNWYQQKPGKAPKLLIYDASNLETGVPSRFSGSGSGTDFTFTISSLQPEDIATYYCQQYDNLPLFGQGTKLEIK
B6: BD56-1486 (protein)
chain 1: QVQLVQSGAEVKKPGSSVKVSCKASGGTFSRYAISWVRQAPGQGLEWMGGIIPIFGTASYAQKFQGRVTITADKSTSTAYMELSSLKSQDTAVYYCARGNTPQPSDHYYHGMDVWGPGTTVTVSS
chain 2: DIQMTQSPSSLSASVGDRVTITCQASQDINTYLNWYQQKPGKAPKLLIYHASNLETGVPSRFSGSGSGTDFTFTISSLQPEDIATYYCQQYDILPLFGQGTKLEIK
B7: BD56-1489 (protein)
chain 1: EVQLVESGGGLVQPGGSLRLSCAASGFTFRSYSMNWVRQAPGKGLEWVSYISSSSSTIYYADSVKGRFTISRDNAKNSLYLQMNSLRDEDTAVYYCARDPYYYDSRGYHYGPYYFDYWGQGTLVTVSS
chain 2: DIQMTQSPSSVSASVGDRVTITCRASQGISGWLAWYQQKPGKAPKLLIYAASSLQSGVPSRFSGSGSGTDFTLTISSLQPEDFATYYCQQANSFPLTFGQGTRLEIK
B8: BD56-1493 (protein)
chain 1: EVQLVQSGAEVKKPGESLKISCKGSGYSFISYWIGWVRQMPGKGLEWMGIIYPGDSDTRYSPSFQGQVTISADKSISTAYLQWSSLKASDTAMYYCARQDGSRGWKGFDPWGQGTLVTVSS
chain 2: QSVLTQPPSASGTPGQRVTISCSGSSSNIGSNAVNWYQQLPGTAPKLLIYGNNQRPSGVPDRFSGSKSGTSASLAISGLQSEDGADYYCAAWDDSLNGWVFGGGTKLTVL
B9: BD56-1516 (protein)
chain 1: QVQLVQSGADVKKPGSSVKVSCKASGGTFSSYSISWVRQAPGQGPEWMGTIIPILGIPSNAQRFQGRVTITADKSTSTAYLELSSLRSDDTAVYYCARSFHYESSGLAADAFDIWGQGTMVTVSS
chain 2: QSVLTQPPSVSGAPGQRVTISCTGTSSNIGAGYDVHWYQQLPGTAPKFLIFGDKNRPSGVPDRFSGSKSGTSASLAITGLQAEDEAAYYCQSYDSSLIGSVFGGGTKLTVL
B10: COV2-2485 (protein)
chain 1: QVQLVQSGAEVKKPGSSVKVSCKASGGTFSSYSITWVRQAPGQGLEWMGRIIPVLGIANYAQKFQDRVTITADKSTSTAYMELSSLRSEDTAVYYCARVGVSGFKSGSNWYFDLWGRGTLVTVSS
chain 2: QSVLTQPPSVSGAPGQRVTLSCTGSNSNIGAGYDVHWYQQLPGTAPKLLIYGNSNRPSGVPDRFSGSKSGTSASLAITGLQAEDEADYYCQSYDSSLSDSVFGGGTKVTVL
B11: BD56-1526 (protein)
chain 1: QVQLQESGPGLVKPSQTLSLTCTVSGGSIRNDEYYWSWIRQPPGKGLEWIGYIHYSGNTYYNPSLKSRVAISVDTSKNQFSLKLSSVTAADTAVYYCARVDVGGRLVSTFDYWGLGTLVTVSS
chain 2: NFMLTQPHSVSESPGMTVTISCTGSSGSIASNYVQWYQQRPGSAPTTVIYENNQRPSGVPDRFSGSIDSSSNSASLTISGLKTEDEADYYCQSYDSSNIAVFGGGTQLTVL
B12: BD56-1529 (protein)
chain 1: QVQLVQSGAEVKKPGASVKVSCKASGYTFINYYIHWVRQAPGQGLEWLAIINPDAGSTSYGQKFQGRVTVTGDTSTNTVYMELSSLRSEDTAVYYCARSAHGIPSARAWFDPWGQGTLVTVSS
chain 2: DIQMTQSPSTLSASVGDRVTITCRASQSIDSSLAWYHQKPGKAPEVLIYKASSLESGVPSRFSGSGSGTEFTLTISSLQPDDFATYFCQQYNSFPFTFGQGTKLEIK

Biological target: SARS-CoV-2 Omicron BA.1 spike pseudovirus
Experiment: pseudovirus neutralization IC50; higher = weaker neutralization
Procedure: (§1)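 Single-round VSV luciferase pseudovirus mixed with antibody dilutions for 1 h and put on Huh-7 cells for about a day; IC50 from the dose curve.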

Binder | pseudovirus neutralization IC50 [µg/mL]
B1 | > 10
B2 | 0.011
B3 | 0.529
B4 | 1.61
B5 | > 10
B6 | > 10
B7 | > 10
B8 | > 10
B9 | 0.105
B10 | 0.19
B11 | > 10
B12 | > 10

Biological target: SARS-CoV-2 Omicron BA.2 spike pseudovirus
Experiment: as above
Procedure: as §1

Binder | pseudovirus neutralization IC50 [µg/mL]
B1 | 0.23
B2 | 0.0131
B3 | 0.371
B4 | 1.34
B5 | > 10
B6 | > 10
B7 | > 10
B8 | > 10
B9 | 0.0828
B10 | 0.0874
B11 | > 10
B12 | > 10

Biological target: SARS-CoV-2 Omicron BA.2.75 spike pseudovirus
Experiment: as above
Procedure: as §1

Binder | pseudovirus neutralization IC50 [µg/mL]
B1 | > 10
B2 | 2.37
B3 | 0.287
B4 | > 10
B5 | > 10
B6 | > 10
B7 | > 10
B8 | > 10
B9 | 0.0957
B10 | 0.12
B11 | > 10
B12 | > 10

Biological target: SARS-CoV-2 Omicron BA.5 spike pseudovirus
Experiment: as above
Procedure: as §1

Binder | pseudovirus neutralization IC50 [µg/mL]
B1 | > 10
B2 | 0.081
B3 | 0.337
B4 | > 10
B5 | > 10
B6 | > 10
B7 | > 10
B8 | > 10
B9 | > 10
B10 | > 10
B11 | > 10
B12 | > 10

Biological target: SARS-CoV-2 Omicron BQ.1.1 spike pseudovirus
Experiment: as above
Procedure: as §1

Binder | pseudovirus neutralization IC50 [µg/mL]
B1 | > 10
B2 | > 10
B3 | > 10
B4 | > 10
B5 | > 10
B6 | > 10
B7 | > 10
B8 | > 10
B9 | > 10
B10 | > 10
B11 | > 10
B12 | > 10

Biological target: SARS-CoV-2 Omicron XBB spike pseudovirus
Experiment: as above
Procedure: as §1

Binder | pseudovirus neutralization IC50 [µg/mL]
B1 | > 10
B2 | 1.87
B3 | 1.62
B4 | > 10
B5 | > 10
B6 | > 10
B7 | > 10
B8 | > 10
B9 | > 10
B10 | > 10
B11 | > 10
B12 | > 10

Biological target: SARS-CoV-2 early D614G spike pseudovirus
Experiment: as above
Procedure: as §1

Binder | pseudovirus neutralization IC50 [µg/mL]
B1 | 0.00241
B2 | 0.00504
B3 | 0.0128
B4 | 0.0254
B5 | 0.184
B6 | 1.16
B7 | > 10
B8 | > 10
B9 | 0.0957
B10 | 0.246
B11 | 0.818
B12 | > 10
